A mixed list of measured activities; the numbers were collected in NIAID ChemDB.

All rows: tests in culture

A number after MIC or MFC names an inhibition level or a share of isolates. Inhibition is in % at the dose shown (toxicity tests: loss of growth or viability). Conditions beyond the fields shown may differ between rows. An empty or dashed field is not shown. ECn: concentration that inhibits the pathogen or its effect by n%.

CCCCN1C(=O)[C@@H](Cc2ccccc2)NC1=S ; measure: inhibition ; cell line: MT-4 ; dose: 10 µg/mL ; read by: cytopathic effect / XTT ; organism: HIV-2 ; value: 82%
CCCC(CCC)C(NC(C)=O)C1C(N=C(N)N)CC(C(=O)O)C1O ; strain: H3N2 A/X-31 ; measure: EC50 ; cell line: MDCK ; organism: Influenza A virus ; value: <0.01 µM
Cc1ccc(Cn2cnc3c(N(C)c4ccccc4)nc(C(F)(F)F)nc32)cc1 ; strain: Serotype 4 ; measure: EC50 ; cell line: M-HELA ; read by: plaque count ; organism: Rhinovirus ; value: 5.1 µM
O=c1[nH]c(=O)n([C@@H]2O[C@H](CO)[C@@H](O)[C@@H]2O)cc1/C=C/Br ; strain: Oka acyclovir-resistant ; measure: EC50 ; cell line: HEL ; read by: cytopathic effect ; organism: Varicella zoster virus ; value: ≥37.5 µM
OC[C@H]1O[C@@H](n2c(Cl)nc3cc(Cl)c(Cl)cc32)[C@H](O)[C@@H]1O ; strain: R56 ; measure: EC50 ; read by: virus yield ; organism: Human cytomegalovirus ; value: <5.2 µM
Cn1cc(C(=O)NCc2ccc(Cl)cc2)c(=O)c2cc(CN3CCOCC3)ccc21 ; strain: CO varicella isolate ; measure: EC50 ; cell line: HFF ; read by: plaque count ; organism: Varicella zoster virus ; value: 0.5 µM
Nc1nc2c(ncn2COC(CO)CO)c(=O)[nH]1 ; strain: AD169 ; measure: inhibition ; cell line: HFF ; dose: 3 µM ; read by: hybridisation ; organism: Cytomegalovirus ; value: 53%
CCC(CC)[C@H](NC(C)=O)[C@@H]1[C@H](O)[C@@H](C(=O)O)C[C@H]1N=C(N)N ; strain: Influenza A/Victoria/3/75 (H3N2) ; measure: EC50 ; cell line: MDCK ; organism: Influenza A virus ; value: 0.1 µM
O=C(NCCc1ccccc1)Nc1nc2ccc(F)cc2s1 ; measure: inhibition ; cell line: MT-4 ; dose: 100 µg/mL ; read by: cytopathic effect / XTT ; organism: HIV-2 ; value: 93%
N#Cc1cc([N+](=O)[O-])ccc1Oc1ccc(Cl)c(Cl)c1 ; strain: TYPE A21 ; measure: inhibition ; cell line: VERO ; dose: 1.56 µg/mL ; organism: Coxsackie virus ; value: 100%
C=CCc1ccc(OC)c(OC)c1 ; strain: 3031 ; measure: MIC90 ; read by: turbidity ; organism: Candida albicans ; value: 350 µg/mL
CCCc1cc(=O)oc2cc(OS(=O)(=O)c3ccc(C)cc3)cc(OS(=O)(=O)c3ccc(C)cc3)c12 ; strain: Chicago ; measure: EC50 ; cell line: CV-1 ; read by: cytopathic effect ; organism: Measles virus ; value: 1 µg/mL
COc1ccc(S(=O)(=O)N(CC2CCCC2)C[C@@H](O)CN(CCc2ccc(O)c(O)c2)C(=O)O[C@H]2CCOC2)cc1 ; strain: IIIB ; measure: EC90 ; cell line: CEM ; read by: p24 ; organism: HIV-1 ; value: 0.1 µM
Nc1nc(=O)n([C@H]2C[C@H](O)[C@@H](CO)O2)cc1/C=C/Cl ; strain: Kentucky (type 1) ; measure: EC50 ; cell line: PRK ; read by: cytopathic effect ; organism: Equine herpesvirus 1 ; value: >400 µg/mL
O=S(=O)([O-])c1ccc(O)c2ccccc12 ; measure: inhibition ; cell line: Human amnion AV3 cells ; dose: 5 µg/mL ; read by: cytopathic effect ; organism: Herpes simplex virus ; value: 0%
O=C(O)P(=O)(O)O ; strain: AD169 ; measure: EC50 ; cell line: MRC-5 ; organism: Cytomegalovirus ; value: 102.6 µM
CC(=O)N1c2cccc(O)c2NC2=C(C(=O)CC(C)(C)C2)C1c1cccc(Cl)c1Cl ; strain: 1b ; measure: EC50 ; read by: luciferase / reporter gene / replicon ; organism: Hepatitis C virus ; value: 0.85 µM
Nc1c(S(=O)(=O)O)cc2cc(S(=O)(=O)O)cc(O)c2c1O ; measure: inhibition ; cell line: Human amnion AV3 cells ; dose: 5 µg/mL ; read by: cytopathic effect ; organism: Herpes simplex virus ; value: 0%
COc1ccc(S(=O)(=O)N(CC(C)C)C(=O)C(=O)C(=O)[C@@H](Cc2ccccc2)NC(=O)O[C@H]2CCOC2)cc1 ; strain: IIIB ; measure: EC90 ; cell line: CEM ; read by: p24 ; organism: HIV-1 ; value: 1 µM
Cn1nc(C(=O)N2c3cccc(O)c3NC3=C(C(=O)CC(C)(C)C3)C2c2ccc(OCc3ccccc3)cc2F)cc1-c1ccco1 ; strain: 1b ; measure: EC50 ; read by: luciferase / reporter gene / replicon ; organism: Hepatitis C virus ; value: 1.73 µM
Oc1ccccc1N=Cc1ccc(F)cc1 ; strain: VM-MCMMPI ; measure: MIC99 ; organism: Cryptococcus neoformans ; value: 8 µg/mL
O=C(O)P(=O)(O)O ; strain: Oka PMEDAP-resistant ; measure: EC50 ; cell line: HEL ; read by: cytopathic effect ; organism: Varicella zoster virus ; value: 141.2 µM
CCN=C1NC2C(OC(CO)C(O)C2O)S1 ; measure: inhibition ; cell line: HEK 293 ; dose: 0.01 µM ; read by: flow cytometry ; organism: Kaposi sarcoma virus ; value: 17%
Nc1cc(S(=O)(=O)[O-])cc2cc(S(=O)(=O)[O-])ccc12 ; strain: TYPE 3 ; measure: inhibition ; cell line: Human embryonic lung cells ; dose: 50 µg/mL ; read by: cytopathic effect ; organism: Adenovirus ; value: 0%
CC1(C)CC(=O)C2=C(C1)Nc1c(O)cccc1N(C(=O)CCC(=O)Nc1ccccc1Cl)C2c1ccc(OCc2ccccc2)cc1Cl ; strain: 1b ; measure: EC50 ; read by: luciferase / reporter gene / replicon ; organism: Hepatitis C virus ; value: 2.16 µM
Cc1cc(-c2ccc(N=Nc3c(S(=O)(=O)O)cc4cc(S(=O)(=O)O)cc(N)c4c3O)c(C)c2)ccc1N=Nc1c(S(=O)(=O)O)cc2cc(S(=O)(=O)O)cc(N)c2c1O ; measure: inhibition ; cell line: Human conjunctiva cells ; dose: 50 µg/mL ; read by: cytopathic effect ; organism: Herpes simplex virus ; value: 100%
OC[C@H]1O[C@@H](n2cnc3c(SCc4ccc(OC(F)(F)F)cc4)ncnc32)[C@H](O)[C@@H]1O ; strain: RH adenosine kinase-deficient ; measure: inhibition ; dose: 25 µM ; organism: Toxoplasma gondii ; value: 2.4%
O=C(c1ccccc1)N(CCc1ccccc1)C[C@H](O)CN(CC1CCCC1)S(=O)(=O)c1ccc2nc[nH]c2c1 ; strain: IIIB ; measure: EC90 ; cell line: CEM ; read by: p24 ; organism: HIV-1 ; value: 1 µM
COc1cc(OC)c2c(=O)cc(-c3ccccc3)oc2c1CC=C(C)C ; strain: Type 2/Mexican isolate ; measure: inhibition ; cell line: LLC-MK2 ; dose: 12 µM ; read by: plaque count ; organism: Dengue virus ; value: 75%
O=c1[nH]c(=O)n([C@H]2C[C@H](O)[C@@H](CO)O2)cc1/C=C\Cl ; strain: LA (TYPE 1) ; measure: EC50 ; cell line: PRK ; read by: cytopathic effect ; organism: Bovine herpesvirus 1 ; value: 7 µg/mL
COc1ccc(S(=O)(=O)N(CC(C)C)C[C@@H](O)CCN(CC2CCCC2)S(=O)(=O)Cc2cnco2)cc1 ; strain: IIIB ; measure: EC90 ; cell line: CEM ; read by: p24 ; organism: HIV-1 ; value: 1 µM
N#Cc1ccc(Cn2cnc3c(Nc4cccc(F)c4)nc(C(F)(F)F)nc32)cc1 ; strain: Serotype 1B ; measure: EC50 ; cell line: M-HELA ; read by: plaque count ; organism: Rhinovirus ; value: 2.7 µM
CCCc1cc(=O)oc2cc(OC(=O)C(C)(C)C)c3c(c12)OC(C)(C)C=C3 ; strain: CC ; measure: EC50 ; cell line: CV-1 ; read by: cytopathic effect ; organism: Measles virus ; value: 2 µg/mL
CN(C)c1cc(NC(=O)CNC(C)(C)C)c(O)c2c1C[C@H]1C[C@H]3[C@H](N(C)C)C(=O)C(C(N)=O)=C(O)[C@@]3(O)C(=O)C1=C2O ; strain: 20 strains (vancomycin-resistant) ; measure: MIC50 ; organism: Enterococcus faecalis ; value: 0.12 µg/mL
Fc1cccc(Cn2cnc3c(Nc4cccc(F)c4)nc(C(F)(F)F)nc32)c1 ; strain: Serotype 40 ; measure: EC50 ; cell line: M-HELA ; read by: plaque count ; organism: Rhinovirus ; value: >2.5 µM
CCC(CC)[C@H](NC(C)=O)[C@@H]1C[C@@H](C(=O)O)C[C@H]1N=C(N)N ; strain: HONG KONG/5/72 ; measure: EC50 ; cell line: MDCK ; organism: Influenza B virus ; value: 2.4 µM
O=C(O)c1ccc(S(=O)(=O)[O-])cc1C(=O)O ; measure: inhibition ; cell line: Human embryonic lung cells ; dose: 5 µg/mL ; read by: cytopathic effect ; organism: Rhinovirus ; value: 0%
CCOC(=O)c1c(C)nc(NCCCNc2ccnc3cc(Cl)ccc23)nc1-c1ccccc1 ; strain: 96806 ; measure: MIC99 ; organism: Cryptococcus neoformans ; value: 45.3 µg/mL
N#Cc1csc(NC(=O)NCCc2ccccc2)n1 ; measure: inhibition ; cell line: MT-4 ; dose: 100 µg/mL ; read by: RT activity ; organism: HIV-2 ; value: 96%
Oc1ccccc1N=Cc1ccc(O)c(O)c1O ; strain: VM-MCMMPI ; measure: MIC99 ; organism: Cryptococcus neoformans ; value: 11.3 µg/mL
CC1(C)CC(=O)C2=C(C1)Nc1c(O)cccc1NC2c1cccnc1N ; strain: 1b ; measure: EC50 ; read by: luciferase / reporter gene / replicon ; organism: Hepatitis C virus ; value: >100 µM
CN(c1cccc(F)c1)c1nc(C(F)(F)F)nc2c1ncn2Cc1cccc(F)c1 ; strain: Serotype 1B ; measure: EC50 ; cell line: M-HELA ; read by: plaque count ; organism: Rhinovirus ; value: 0.9 µM
O=C(O)CP(=O)(O)O ; strain: Oka PFA-resistant/A ; measure: EC50 ; cell line: HEL ; read by: cytopathic effect ; organism: Varicella zoster virus ; value: 254.2 µM
O=C(NCCc1ccccc1)Nc1nc2c(Cl)cccc2s1 ; measure: inhibition ; cell line: MT-4 ; dose: 100 µg/mL ; read by: RT activity ; organism: HIV-2 ; value: 93%
Nc1nc(N)c2ncn(CCOCP(=O)(O)O)c2n1 ; strain: Oka PMEA-resistant ; measure: EC50 ; cell line: HEL ; read by: cytopathic effect ; organism: Varicella zoster virus ; value: 41.3 µM
Nc1ccc2cc(S(=O)(=O)O)cc(S(=O)(=O)O)c2c1 ; strain: TYPE 3 ; measure: inhibition ; cell line: Human embryonic lung cells ; dose: 5 µg/mL ; read by: cytopathic effect ; organism: Adenovirus ; value: 0%
Cc1nc(NC(=O)NCCc2ccccc2)sc1C ; measure: EC50 ; cell line: MT-4 ; read by: cytopathic effect / XTT ; organism: HIV-2 ; value: <1 µg/mL
Nc1nc2c(ncn2CCC(CO)CO)c(=O)[nH]1 ; strain: Clinical isolate VZV-21 ; measure: EC50 ; cell line: HEL ; read by: cytopathic effect ; organism: Varicella zoster virus ; value: 1.9 µM
CC(C)(C)c1ccc(CSc2ncnc3c2ncn3[C@@H]2O[C@H](CO)[C@@H](O)[C@H]2O)cc1 ; strain: RH (WILD TYPE) ; measure: inhibition ; dose: 10 µM ; organism: Toxoplasma gondii ; value: 28.3%
CN1C(=O)[C@@H](Cc2ccccc2)NC1=S ; measure: inhibition ; cell line: MT-4 ; dose: 10 µg/mL ; read by: cytopathic effect / XTT ; organism: HIV-2 ; value: 63%
CCCc1cc(=O)oc2cc(OS(=O)(=O)c3ccc(C)cc3)cc(O)c12 ; strain: MO2 ; measure: EC50 ; cell line: CV-1 ; read by: cytopathic effect ; organism: Measles virus ; value: 7 µg/mL
Cc1cc(-c2ccc(N=Nc3ccc4c(S(=O)(=O)O)cc(S(=O)(=O)O)c(N)c4c3O)c(C)c2)ccc1N=Nc1ccc2c(S(=O)(=O)O)cc(S(=O)(=O)O)c(N)c2c1O ; strain: TYPE 3 ; measure: inhibition ; cell line: Human amnion AV3 cells ; dose: 50 µg/mL ; read by: cytopathic effect ; organism: Adenovirus ; value: 0%
CC1(C)CC(=O)C(S(=O)(=O)N(CC2CCCC2)C[C@@H](O)CN(CCc2ccccc2)C(=O)c2ccccc2)C(=O)S1 ; strain: IIIB ; measure: EC90 ; cell line: CEM ; read by: p24 ; organism: HIV-1 ; value: 1 µM
Nc1ncnc2c1ncn2C=C1CC1CO ; strain: VR6264 (ganciclovir-resistant) ; measure: EC90 ; read by: plaque count ; organism: Human cytomegalovirus ; value: 2.1 µM

5 of the rows above, restated:

structure	strain	measure	cell line	dose	read by	organism	value
O=c1[nH]c(=O)n([C@@H]2O[C@H](CO)[C@@H](O)[C@@H]2O)cc1/C=C/Br	Oka acyclovir-resistant	EC50	HEL		cytopathic effect	Varicella zoster virus	≥37.5 µM
CCCc1cc(=O)oc2cc(OS(=O)(=O)c3ccc(C)cc3)cc(OS(=O)(=O)c3ccc(C)cc3)c12	Chicago	EC50	CV-1		cytopathic effect	Measles virus	1 µg/mL
CC1(C)CC(=O)C(S(=O)(=O)N(CC2CCCC2)C[C@@H](O)CN(CCc2ccccc2)C(=O)c2ccccc2)C(=O)S1	IIIB	EC90	CEM		p24	HIV-1	1 µM
OC[C@H]1O[C@@H](n2c(Cl)nc3cc(Cl)c(Cl)cc32)[C@H](O)[C@@H]1O	R56	EC50			virus yield	Human cytomegalovirus	<5.2 µM
O=S(=O)([O-])c1ccc(O)c2ccccc12		inhibition	Human amnion AV3 cells	5 µg/mL	cytopathic effect	Herpes simplex virus	0%